# Data source: PubChem BioAssay AID1224833 (University of Georgia, 2016)
# Aim: 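Host factors restraining rotavirus as candidate antiviral genes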 (primary screen)
# System: monkey MA104 kidney cells
# Reagent: siRNA pool against human genes, 50 nM
# Timing: 48 h knock-down before infection; read 24 h after infection
# Challenge: infection with rotavirus strain RV3 two days after transfection; infectious dose for this stage not given
# Measurement: 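z-score of rotavirus antigen signal per well, from a fluorescent immunoassay, relative to non-targeting control wells on the same plate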
# Direction: z-score vs non-targeting control: higher = more rotavirus replication than with non-targeting control
# Call rule: In these data the active calls have z-score vs non-targeting control at about -1 or lower, or at about 1 or higher
# Meaning of the calls: active = z-score beyond 1 either way; inactive = z-score within 1 of zero
# In all, the deposit lists about 12,000 reagents; shown is a random part of them. In the full data, about 5,600 (46%) were called active. 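Active calls cover z-scores past 1 in both directions, so they include lowered as well as raised rotavirus replication.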 No sequences are given here.
gene,PubChem SID,z-score vs non-targeting control,outcome
HES6,SID329579727,2,active
SDHB,SID329575282,-1.73,active
UTS2B,SID329583765,-0.556,inactive
A4GNT,SID329578933,1.6,active
XIRP1,SID329583273,-0.983,inactive
EXOC3,SID329577647,0.778,inactive
STARD5,SID329581250,-0.305,inactive
ENTHD1,SID329583014,1.14,active
DOC2B,SID329576115,-0.488,inactive
SNX10,SID329578702,1.05,active
HCFC1R1,SID329579506,-1.63,active
PRPH2,SID329575104,0.535,inactive
ULBP1,SID329581217,-1.78,active
TMEM67,SID329581989,-1.51,active
CRYBA1,SID329573264,2.14,active
HSD3B2,SID329574048,0.591,inactive
PWWP3B,SID329582774,0.805,inactive
OR2Y1,SID329582706,0.0316,inactive
TIA1,SID329575642,-0.732,inactive
RAB4A,SID329575043,-0.468,inactive
TOE1,SID329582197,0.771,inactive
C19orf33,SID329580549,-1.77,active
EPB41L4B,SID329579332,-1.15,active
OGDH,SID329574695,1.3,active
ZNF844,SID329583888,-0.467,inactive
PLAAT3,SID329577560,-0.673,inactive
TCTN2,SID329581051,2.2,active
CCL4,SID329575255,-1.73,active
SSC4D,SID329582740,-1.16,active
KIF3C,SID329574211,1.68,active
EIF2B4,SID329576341,-1.56,active
EPPIN,SID329580165,-0.424,inactive
KDM4C,SID329577798,1.84,active
IGFBP1,SID329574115,0.785,inactive
RFLNA,SID329582868,1.26,active
LCE6A,SID329584628,0.564,inactive
ENDOV,SID329583871,1.93,active
LAMC2,SID329574276,0.0471,inactive
GNAZ,SID329573795,-1.54,active
TSEN34,SID329580818,-2.75,active
ANTXR1,SID329581534,-1.07,active
CLPB,SID329581319,-2.36,active
TMEM143,SID329579667,1.2,active
EFNB2,SID329573495,0.403,inactive
INSL6,SID329577581,-0.538,inactive
GTF3A,SID329573894,-2.07,active
BARX2,SID329576164,0.604,inactive
PABPC5,SID329582836,-0.317,inactive
PCDHB15,SID329579971,1.48,active
HTRA4,SID329583455,1.73,active
RASSF9,SID329576466,-1.17,active
GAB1,SID329573705,3.97,active
KIAA0586,SID329576794,-0.896,inactive
WARS2,SID329577114,-1.17,active
SEPSECS,SID329578898,0.804,inactive
LRRC8A,SID329580022,1.31,active
TMC8,SID329582927,0.357,inactive
HCRT,SID329573943,0.693,inactive

Ordered by “z-score vs non-targeting control” (high to low): some entries from above
gene,PubChem SID,z-score vs non-targeting control,outcome
ENDOV,SID329583871,1.93,active
TMEM143,SID329579667,1.2,active
LAMC2,SID329574276,0.0471,inactive
ANTXR1,SID329581534,-1.07,active
GNAZ,SID329573795,-1.54,active
CLPB,SID329581319,-2.36,active
TSEN34,SID329580818,-2.75,active

The results go on:
gene,PubChem SID,z-score vs non-targeting control,outcome
CCL24,SID329575269,0.329,inactive
HAT1,SID329576151,-1.32,active
CCT6A,SID329573044,1.43,active
DNAAF2,SID329579612,-0.484,inactive
HIKESHI,SID329579093,-0.59,inactive
IKZF2,SID329577659,1.78,active
MKLN1,SID329574451,-1.01,active
GADD45A,SID329573378,0.734,inactive
CST9L,SID329582621,0.168,inactive
ZNF671,SID329581061,0.887,inactive
OR5V1,SID329581349,-1.36,active
DPY19L2,SID329583837,-1.34,active
GNAQ,SID329573792,-0.0944,inactive
PCNX4,SID329580640,-1.27,active
MIR1-1HG,SID329582623,-2.27,active
FOXA3,SID329573992,-0.505,inactive
ACTRT1,SID329582786,1.06,active
SLC39A3,SID329578751,-0.737,inactive
MBD3L1,SID329581878,-1.42,active
NR3C2,SID329574458,-1.52,active
GID4,SID329580804,-1.31,active
NOL4,SID329576253,0.477,inactive
CYP4A22,SID329583902,-0.972,inactive
IFITM3,SID329577139,0.119,inactive
CBX6,SID329578003,-0.814,inactive
TBC1D23,SID329579864,1.54,active
HMGN5,SID329580879,-0.582,inactive
TMEM242,SID329584735,-1.94,active
FOXC1,SID329573656,-0.635,inactive
ADM,SID329572702,-0.529,inactive
GNRH1,SID329573806,-1.33,active
FERMT2,SID329577463,0.202,inactive
DEPTOR,SID329580688,-0.27,inactive
FAM9A,SID329583341,0.126,inactive
TOM1,SID329576928,0.594,inactive
KRTAP4-7,SID329584764,-0.504,inactive
MEST,SID329574429,-1.09,active
CNTF,SID329573192,3.06,active
OR5AR1,SID329583506,-0.0898,inactive
LUC7L,SID329579813,-1.7,active
PARD6A,SID329578832,-1.22,active
ICMT,SID329578002,-1.54,active
P2RY6,SID329574732,1.41,active
RAD9A,SID329575054,-0.939,inactive
NLRC4,SID329580408,0.573,inactive
TSPAN10,SID329581470,-0.404,inactive
PTCH1,SID329575007,-1.1,active
QPRT,SID329578008,-1.44,active
RAB33B,SID329581393,-0.708,inactive
BTBD8,SID329577919,-0.566,inactive
BTBD8,SID329583910,0.162,inactive
PSME4,SID329577867,-1.85,active
